These results are taken from publication PMC5762688 (Scientific Reports, 2018).

This assay addresses Importin α2/β1 heterodimer (mouse), tagless recombinant, preformed (mouse, UniProt P52293 1-529; P70168 1-876). Put plainly: circular dichroism. Conditions: both partners purified. For orientation: Circular dichroism is the unequal absorption of left and right circularly polarised light.

B1: Hendra virus V protein, wild type, tagless recombinant (natural protein)
chain: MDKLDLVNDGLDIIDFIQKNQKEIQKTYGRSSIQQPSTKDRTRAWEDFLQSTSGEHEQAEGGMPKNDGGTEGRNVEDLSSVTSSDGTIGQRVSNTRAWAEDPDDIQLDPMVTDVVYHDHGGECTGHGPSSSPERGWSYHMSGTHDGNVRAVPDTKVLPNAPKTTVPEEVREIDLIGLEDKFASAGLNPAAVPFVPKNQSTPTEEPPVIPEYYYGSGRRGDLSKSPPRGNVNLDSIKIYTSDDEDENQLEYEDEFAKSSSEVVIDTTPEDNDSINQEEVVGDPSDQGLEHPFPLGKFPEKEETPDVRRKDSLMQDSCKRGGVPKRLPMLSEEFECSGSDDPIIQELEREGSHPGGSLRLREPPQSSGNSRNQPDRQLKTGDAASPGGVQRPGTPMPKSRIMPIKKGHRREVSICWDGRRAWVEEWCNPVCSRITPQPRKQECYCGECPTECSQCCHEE
As for B1, the binding result is on record as “binds”.
